Data: patent US11028072B2, “2,4-diamino-6-ethylpyrimidine derivatives with antimalarial activities against Plasmodium falciparum” (National Science and Technology Development Agency, priority 2015, dated 2021)

Sequences of proteins named here, by UniProt entry; tags and fusion partners are left off.
UniProt P13922, whole entry N51I/I164L: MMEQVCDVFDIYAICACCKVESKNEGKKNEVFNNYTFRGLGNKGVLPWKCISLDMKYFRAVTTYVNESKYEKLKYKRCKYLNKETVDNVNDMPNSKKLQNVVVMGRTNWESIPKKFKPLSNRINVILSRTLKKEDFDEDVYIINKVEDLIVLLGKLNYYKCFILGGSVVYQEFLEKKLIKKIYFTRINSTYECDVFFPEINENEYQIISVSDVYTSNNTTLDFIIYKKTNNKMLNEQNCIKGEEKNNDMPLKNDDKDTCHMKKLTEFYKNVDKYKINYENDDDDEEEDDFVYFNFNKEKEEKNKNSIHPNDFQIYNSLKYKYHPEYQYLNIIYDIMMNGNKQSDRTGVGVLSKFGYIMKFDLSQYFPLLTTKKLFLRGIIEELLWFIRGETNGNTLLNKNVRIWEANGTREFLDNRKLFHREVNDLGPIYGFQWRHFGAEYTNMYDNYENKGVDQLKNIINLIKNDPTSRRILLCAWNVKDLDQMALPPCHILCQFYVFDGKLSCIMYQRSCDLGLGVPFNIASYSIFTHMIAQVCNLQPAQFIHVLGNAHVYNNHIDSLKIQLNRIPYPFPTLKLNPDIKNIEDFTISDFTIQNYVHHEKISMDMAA
UniProt P13922, whole entry R59C/N108S: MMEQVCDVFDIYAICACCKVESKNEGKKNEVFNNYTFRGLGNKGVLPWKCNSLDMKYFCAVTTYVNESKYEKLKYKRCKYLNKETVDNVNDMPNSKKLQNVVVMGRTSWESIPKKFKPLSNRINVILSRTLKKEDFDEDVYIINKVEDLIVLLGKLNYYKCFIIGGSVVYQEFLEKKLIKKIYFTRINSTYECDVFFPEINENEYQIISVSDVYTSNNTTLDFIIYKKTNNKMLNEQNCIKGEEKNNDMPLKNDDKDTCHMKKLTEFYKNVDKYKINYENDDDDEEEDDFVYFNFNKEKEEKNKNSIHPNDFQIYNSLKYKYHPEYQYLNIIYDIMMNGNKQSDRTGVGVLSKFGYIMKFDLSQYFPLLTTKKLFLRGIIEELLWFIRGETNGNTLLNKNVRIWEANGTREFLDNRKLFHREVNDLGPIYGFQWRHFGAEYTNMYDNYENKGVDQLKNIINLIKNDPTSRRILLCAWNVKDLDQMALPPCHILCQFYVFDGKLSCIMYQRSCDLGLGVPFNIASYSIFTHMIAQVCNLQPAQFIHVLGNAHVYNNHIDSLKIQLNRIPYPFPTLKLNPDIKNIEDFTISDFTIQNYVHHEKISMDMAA

Tests used:
[1] = molecular target: wild type (WT) pfDHFR (Plasmodium falciparum, UniProt P13922, N108S/R59C); assay: Inhibition of wild type pfDHFR (Ki); type: biochemical; conditions: read-out: Ki pfDHFR WT, hydrochloride salts, tested form: HCl
[2] = test system: Human dihydrofolate reductase (hDHFR); assay: Inhibition of human dihydrofolate reductase (Ki); type: biochemical; conditions: Ki hDHFR divided by Ki quadruple mutant pfDHFR; tested form: HCl
[3] = molecular target: quadruple mutant N51I + C59R + S108N + I164L (QM) pfDHFR (Plasmodium falciparum, UniProt P13922, I164L/N51I); assay: Inhibition of quadruple mutant pfDHFR (Ki); type: biochemical; conditions: read-out: Ki pfDHFR N51I + C59R + S108N + I164L (QM), hydrochloride salts, tested form: HCl
[4] = test system: P. falciparum V1/S (N51I + C59R + S108 + I164L); conditions: read-out: IC50 P. falciparum V1/S; in vitro, quadruple mutant strain V1/S; tested form: HCl
[5] = test system: Vero cells; conditions: read-out: Cytotoxicity against Vero cells (IC50), tested form: HCl
[6] = test system: P. falciparum TM4/8.2 (wild type); conditions: read-out: IC50 P. falciparum TM4/8.2 (WT); tested form: HCl

CCc1nc(N)nc(N)c1OCCCc1cn(Cc2cccc(C(=O)O)c2)nn1
Ki [1]: 0.6 nM
Selectivity ratio of Ki hDHFR/Ki QM [2]: 9.73
Ki [3]: 9.71 nM
IC50 [4]: > 25000 nM
IC50 [5]: > 25000 nM
IC50 [6]: 1800 nM
